The values that follow come from patent US8221762B2, “Naturally processed measles virus peptides from class II HLA molecules” (priority 2004, dated 2012).

This data set concerns PBMC of subjects previously immunized with MMR-II vaccine. The data set is described as follows: T cell proliferation assay ([3H]-thymidine, 4 days, SI>2 positive), Example 3. The conditions noted are these: among 107 subjects who responded to measles.

In the case of `CC[C@H](C)[C@H](NC(=O)[C@H](CCC(=O)O)NC(=O)CNC(=O)CNC(=O)[C@H](CCC(=O)O)NC(=O)[C@H](C)NC(=O)[C@@H](NC(=O)[C@H](CCC(=O)O)NC(=O)[C@@H](NC(=O)[C@H](CC(=O)O)NC(=O)[C@H](CO)NC(=O)[C@H](C)N)C(C)C)[C@@H](C)O)C(=O)N[C@@H](Cc1c[nH]cn1)C(=O)N[C@@H](CCC(=O)O)C(=O)N[C@@H](CC(C)C)C(=O)N[C@@H](CC(C)C)C(=O)N[C@@H](CCCNC(=N)N)C(=O)N[C@@H](CC(C)C)C(=O)N[C@@H](CCC(N)=O)C(=O)O` [MV-P1], the “sensitivity (measles responders who also responded to the peptide)” value is 47%.

Take `CC[C@H](C)[C@H](NC(=O)[C@H](CCC(=O)O)NC(=O)CNC(=O)CNC(=O)[C@H](CCC(=O)O)NC(=O)[C@H](C)NC(=O)[C@@H](NC(=O)[C@H](CCC(=O)O)NC(=O)[C@@H](NC(=O)[C@H](CC(=O)O)NC(=O)[C@H](CO)NC(=O)[C@H](C)N)C(C)C)[C@@H](C)O)C(=O)N[C@@H](Cc1c[nH]cn1)C(=O)N[C@@H](CCCCN)C(=O)N[C@@H](CC(C)C)C(=O)N[C@@H](CC(C)C)C(=O)N[C@@H](CCCNC(=N)N)C(=O)N[C@@H](CC(C)C)C(=O)N[C@@H](CCC(N)=O)C(=O)O` [MV-P2]: the “sensitivity (measles responders who also responded to the peptide)” value amounted to 20%.
